Measured values from several laboratories, pooled; numbers as filed in NIAID ChemDB.

All rows: tests on isolated targets

Blank or dashed fields: not listed here.

structure	dose	endpoint	protein	agent	value
O=C(O)c1c[nH]n2c(=O)c(CC3CCCO3)c(-c3ccc(OCc4ccccc4)cc3)nc12		IC50	RNA-dependent RNA polymerase	Hepatitis C virus	>10 µM
O=C(Nc1cccc(-c2nc(C(=O)O)c(O)c(=O)[nH]2)c1)Oc1ccccc1		IC50	HCV polymerase	Hepatitis C virus	<100 µM
COc1ccc(-c2ccc(C(F)(F)F)cc2)c(-c2ccc3cc(-c4nc5cc(C(=O)O)ccc5n4C4CCCCC4)ccc3n2)c1	100 µM	inhibition	NS5B polymerase	Hepatitis C virus	99.29%
C=CCOc1cc2c(C(=O)NC)c(-c3ccc(F)cc3)oc2cc1N(C)S(C)(=O)=O		IC50	Nonstructural protein 5B	Hepatitis C virus	≤0.5 µM
O=C(Nc1ccsc1-c1nc(C(=O)OC2OC(=O)c3ccccc32)c(O)c(=O)[nH]1)c1ccccc1		IC50	HCV polymerase	Hepatitis C virus	<50 µM
O=C(O)c1ccc(-c2ccc(Cl)cc2)c(-c2ccc3cc(-c4nc5cc(C(=O)O)ccc5n4C4CCCCC4)ccc3n2)c1	33 µM	inhibition	NS5B polymerase	Hepatitis C virus	101%
COc1nc(NCCc2c[nH]c3ccccc23)nc(Nc2ccc3[nH]ncc3c2)n1	0.1 µg/mL	inhibition	DNA polymerase	Hepatitis B virus	32%
O=C(O)c1sc(-c2ccccc2)cc1N(Cc1cccc(Cl)c1)C(=O)C1CCC1		IC50	NS3 ATPase	Hepatitis C virus	5–20 µM
Cc1cc(-c2nc3cc(C(=O)O)ccc3n2C2CCCCC2)cc2ccc(-c3ccccc3-c3ccc(Cl)cc3)nc12	33 µM	inhibition	NS5B polymerase	Hepatitis C virus	97.75%
O=C(O)c1cc2nccc(-c3ccccc3-c3ccc(Cl)cc3)n2n1		IC50	RNA-dependent RNA polymerase	Hepatitis C virus	1–10 µM
COCCNc1nc(Nc2ccc3[nH]ncc3c2)nc(OC)n1	0.1 µg/mL	inhibition	DNA polymerase	Hepatitis B virus	56%
CNC(=O)c1c(-c2ccc(F)cc2)oc2cc(N3CCOCC3)c(OCc3nn(C)cc3Cl)cc12		IC50	Nonstructural protein 5B	Hepatitis C virus	≤0.5 µM
N#Cc1cnn2c(-c3cccc(Oc4ccccc4)c3)c(-c3ccccc3)cnc12		IC50	RNA-dependent RNA polymerase	Hepatitis C virus	>10 µM
COCCNc1nc(Nc2ccc3cn[nH]c3c2)nc(OC)n1	0.01 µg/mL	inhibition	DNA polymerase	Hepatitis B virus	32%
Cc1ccc(-c2cc(NS(=O)(=O)c3cc(C)ccc3C)c(C(=O)O)s2)cc1		IC50	NS3 ATPase	Hepatitis C virus	<5 µM
CCOC(=O)C1=CN(N2CCN(c3nc(Nc4ccc5[nH]ncc5c4)nc(OC)n3)CC2)C(SC)N=C1	0.1 µg/mL	inhibition	DNA polymerase	Hepatitis B virus	3%
CC(=O)N(Cc1ccc(F)cc1F)c1cc(-c2ccccc2)sc1C(=O)O		IC50	NS3 ATPase	Hepatitis C virus	5–20 µM
CNC(=O)c1c(-c2ccc(F)cc2)oc2cc(-c3c(C)noc3C)c(OC)cc12		IC50	Nonstructural protein 5B	Hepatitis C virus	≤0.5 µM
COc1cccc(-c2cc(-c3ccc(-c4ccccc4)cc3)n3nc(C(=O)O)cc3n2)c1		IC50	RNA-dependent RNA polymerase	Hepatitis C virus	1–10 µM
CC[C@@H](C=O)NC(=O)[C@@H]1C[C@@H](OC(=O)Nc2cccc(C(C)=O)c2)CN1C(=O)[C@@H](NC(=O)[C@@H](NC(=O)c1cnccn1)C(C)C)C(C)C		Ki	NS3 protease	Hepatitis C virus	>100 µM
COc1ccccc1-c1cc(-c2cccc(Cl)c2)nc2cc(C(=O)O)nn12		IC50	RNA-dependent RNA polymerase	Hepatitis C virus	>10 µM
COc1nc(NCCCn2ccnc2)nc(Nc2ccc3[nH]ncc3c2)n1	10 µg/mL	inhibition	Nonstructural protein 5B	Hepatitis C virus	72%
COc1ccc(-c2ccc(Cl)cc2)c(-c2ccc3cc(-c4nc5cc(C(=O)O)ccc5n4CC4CC4)ccc3n2)c1	33 µM	inhibition	NS5B polymerase	Hepatitis C virus	99.98%
COc1nc(NCCCN2CCCC2=O)nc(Nc2ccc3[nH]ncc3c2)n1	0.1 µg/mL	inhibition	DNA polymerase	Hepatitis B virus	27%
O=C(Nc1ccc(F)cc1)Nc1cccc(-c2nc(C(=O)O)c(O)c(=O)[nH]2)c1		IC50	HCV polymerase	Hepatitis C virus	<100 µM
CC[C@H](NC(=O)[C@H](CC(C)C)NC(=O)[C@@H](NC(=O)[C@@H](NC(=O)[C@H](CC(=O)O)CC(=O)[C@H](CCC(=O)O)NC(C)=O)C(C)C)C(C)C)C(=O)C(=O)N1CCOCC1		Ki	NS3 protease	Hepatitis C virus	1–100 µM
O=C(O)c1ccc2c(c1)nc(-c1ccc3nc(CCn4cccn4)ccc3c1)n2C1CCCCC1	33 µM	inhibition	NS5B polymerase	Hepatitis C virus	97.35%
O=C(O)c1nc(-c2ccccc2NS(=O)(=O)c2ccc(O)cc2)[nH]c(=O)c1O		IC50	HCV polymerase	Hepatitis C virus	<100 µM
CC[C@@H](C=O)NC(=O)[C@@H]1C[C@@H](OC(=O)Nc2ccc([N+](=O)[O-])cc2)CN1C(=O)[C@@H](NC(=O)[C@@H](NC(=O)c1cnccn1)C(C)C)C(C)C		Ki	NS3 protease	Hepatitis C virus	1–100 µM
CNC(=O)c1c(-c2ccc(F)cc2)oc2cc(N(Cc3nc(C(=O)O)cs3)S(C)(=O)=O)c(OC(C)C)cc12		IC50	Nonstructural protein 5B	Hepatitis C virus	≤0.5 µM
CC[C@@H](C=O)NC(=O)[C@@H]1C[C@@H](OC(=O)Nc2cc(Cl)c(N)c(Cl)c2)CN1C(=O)[C@@H](NC(=O)[C@@H](NC(=O)c1cnccn1)C(C)C)C(C)C		Ki	NS3 protease	Hepatitis C virus	>100 µM
COc1cc(OC)cc(C(=O)Nc2cccc(-c3nc(C(=O)O)c(O)c(=O)[nH]3)c2)c1		IC50	HCV polymerase	Hepatitis C virus	<100 µM
O=C(O)COc1ccc(-c2ccc(Cl)cc2)c(-c2ccc3cc(-c4nc5cc(C(=O)O)ccc5n4C4CCCCC4)ccc3n2)c1	100 µM	inhibition	NS5B polymerase	Hepatitis C virus	96.94%
COc1ccc(COc2c(C(=O)O)nc(-c3sccc3NC(=O)CCC(=O)NO)[nH]c2=O)cc1		IC50	HCV polymerase	Hepatitis C virus	<50 µM
COc1nc(Nc2ccc3cn[nH]c3c2)nc(N2CCN(CCO)CC2)n1	0.1 µg/mL	inhibition	Nonstructural protein 5B	Hepatitis C virus	37%
c1cc(-c2cnc3c(-c4nn[nH]n4)cnn3c2C2CCCCC2)ccc1OC1CCCC1		IC50	RNA-dependent RNA polymerase	Hepatitis C virus	1–10 µM
CC(C)N(C(=O)c1ccc(Cl)nc1)c1cc(-c2ccccc2)sc1C(=O)O		IC50	NS3 ATPase	Hepatitis C virus	>20 µM
CCC(=O)C(=O)CC(=O)Nc1cnn2c(C3CCCCC3)c(-c3ccc(OCc4ccccc4)cc3)cnc12		IC50	RNA-dependent RNA polymerase	Hepatitis C virus	>10 µM
COc1ccc(-c2ccc(Cl)cc2)c(-c2ccc3cc(-c4nc5cc(C(=O)O)ccc5n4C4CC56CCC5CCC46)ccc3n2)c1	100 µM	inhibition	NS5B polymerase	Hepatitis C virus	100%
O=C(Nc1cccc(-c2nc(C(=O)O)c(O)c(=O)[nH]2)c1)c1ccc(Cl)c(Cl)c1		IC50	HCV polymerase	Hepatitis C virus	<100 µM
C=CCN(C(=O)Cc1ccc(F)cc1F)c1cc(-c2ccccc2)sc1C(=O)O		IC50	NS3 ATPase	Hepatitis C virus	5–20 µM
O=C(O)c1ccc2c(c1)nc(-c1ccc3nc(-c4ccccc4)cnc3c1)n2C1CCCCC1	33 µM	inhibition	NS5B polymerase	Hepatitis C virus	74.98%

For reference, 3 entries again:

structure | dose | endpoint | protein | agent | value
COc1ccccc1-c1cc(-c2cccc(Cl)c2)nc2cc(C(=O)O)nn12 |  | IC50 | RNA-dependent RNA polymerase | Hepatitis C virus | >10 µM
COc1ccc(-c2ccc(C(F)(F)F)cc2)c(-c2ccc3cc(-c4nc5cc(C(=O)O)ccc5n4C4CCCCC4)ccc3n2)c1 | 100 µM | inhibition | NS5B polymerase | Hepatitis C virus | 99.29%
c1cc(-c2cnc3c(-c4nn[nH]n4)cnn3c2C2CCCCC2)ccc1OC1CCCC1 |  | IC50 | RNA-dependent RNA polymerase | Hepatitis C virus | 1–10 µM

Neighbouring rows are from separate reports. Two numbers with a dash give a range or band. ICn is the concentration giving n% inhibition. Percent inhibition refers to the dose given; in toxicity tests it is the harm to the cells.